Results of unrelated studies side by side (data: NIAID ChemDB).

ECn is the concentration giving n% inhibition of infection, replication or growth. An empty or dashed field is not shown. CCn: concentration that lowers growth or viability of the cells by n%. Inhibition is in % at the dose shown (toxicity tests: loss of growth or viability). Zones are inhibition diameters on agar. ICn is the concentration giving n% inhibition. Conditions beyond the fields shown may differ between rows.

compound | tested at | strain | read by | agent | protein | setting | cells | test | read-out | value
Nc1cc([As]=O)ccc1O | - | - | - | - | - | - | MT-2 | toxicity | CC50 | 0.45 µg/mL
Cc1cn([C@H]2C[C@H](F)[C@@H](CO)O2)c(=O)[nH]c1=O | - | - | p24 / ELISA | HIV-1 | - | - | MT-4 | culture | EC50 | 0.0069 µM
Nc1ccn([C@H]2CC[C@@H](CO)O2)c(=O)n1 | - | - | p24 | HIV-1 | - | - | MT-4 | culture | EC50 | 0.29 µM
Cc1cn([C@H]2CC[C@@H](CO)O2)c(=O)[nH]c1=O | - | - | p24 / ELISA | HIV-1 | - | - | MT-4 | culture | EC50 | 1.88 µM
CCc1cn([C@H]2C[C@H](O)[C@@H](COP(=O)(O)F)S2)c(=O)[nH]c1=O | - | - | - | - | - | - | VERO | toxicity | CC50 | >1300 µM
N#Cc1c(SCCBr)nsc1-c1ccccc1 | - | - | - | - | - | - | VERO | toxicity | CC50 | 25 µg/mL
Cc1cn([C@H]2C[C@H](F)[C@@H](CO)O2)c(=O)[nH]c1=O | 0.1 µM | - | RT activity | HIV-1 | - | - | H9 | culture | inhibition | 56.39%
CCN(CC)CCOC(=O)C(O)(c1ccccc1)c1ccco1 | 6.25 µg/mL | H37Rv | - | Mycobacterium tuberculosis | - | - | - | culture | inhibition | 2%
Cc1c([N+](=O)[O-])cc([N+](=O)[O-])c2oc3ccc([N+](=O)[O-])cc3c(=O)c12 | - | ATCC 607 | - | Mycobacterium smegmatis | - | - | - | culture | MIC | 1.75 µg/mL
Cc1cn([C@H]2C[C@H](N=[N+]=[N-])[C@@H](COP(=O)(O)F)O2)c(=O)[nH]c1=O | - | IIIB | - | HIV-1 | - | - | CEM + CEM TK- | culture | EC50 | 46 µM
O=[N+]([O-])c1cc(S(=O)(=O)c2cc([N+](=O)[O-])c(Cl)c([N+](=O)[O-])c2)ccc1Cl | - | - | strand transfer | HIV-1 | Integrase | - | - | target | IC50 | 65.6 µM
O=[N+]([O-])c1cc2nc(Cl)[nH]c2cc1[N+](=O)[O-] | 6.25 µg/mL | H37Rv | resazurin | Mycobacterium tuberculosis | - | - | - | culture | inhibition | -14%
O=[N+]([O-])c1ccc(Cn2nnc(-c3cc([N+](=O)[O-])cc([N+](=O)[O-])c3)n2)cc1 | - | 6509/96 | - | Mycobacterium kansasii | - | 7 d | - | culture | MIC | 2 µM
C(/C=C/c1ccccc1)=NCCNCCN=C/C=C/c1ccccc1.[N-]=[N+]=[N][Hg][N]=[N+]=[N-] | 10000 µg/mL | - | agar diffusion | Aspergillus niger | - | - | - | culture | zone | 32 mm

Repeating the first 2 entries:

compound,tested at,strain,read by,agent,protein,setting,cells,test,read-out,value
Nc1cc([As]=O)ccc1O,-,-,-,-,-,-,MT-2,toxicity,CC50,0.45 µg/mL
Cc1cn([C@H]2C[C@H](F)[C@@H](CO)O2)c(=O)[nH]c1=O,-,-,p24 / ELISA,HIV-1,-,-,MT-4,culture,EC50,0.0069 µM